Measured values from several laboratories, pooled; numbers as filed in NIAID ChemDB.

Common to all: tests in culture; agent: Hepatitis C virus; read by: replicon; measure: EC50

Lines come from different laboratories, so protocols vary.

| structure | cells | strain or isolate | value |
|---|---|---|---|
| O=C(Nc1ccc(C2SC3=Nc4ccccc4CN3C2=O)cc1)[C@@H]1CCCN1C(=O)OCc1ccccc1 | Huh7 |  | 0.1–1 µM |
| CCN(C(=O)C1CCC(C)CC1)c1cc(-c2ccc(NC(=O)c3cn(C)cn3)cc2)sc1C(=O)O |  | 1a | <0.5 µM |
| C=CC1CC1(NC(=O)[C@@H]1C[C@@H](OC(=O)Nc2ccccc2-n2cccc2)CN1C(=O)[C@@H](NC(=O)OC(C)(C)C)C(C)(C)C)C(=O)NS(=O)(=O)C1CC1 | Huh7 | 1b | 0.1–1 µM |
| COc1cccc(CC(=O)N/N=C/c2ccccc2OS(=O)(=O)c2ccc(-c3cnco3)s2)c1 | Huh7 |  | <5 µM |
| CNC(=O)c1c(-c2ccc(F)cc2)oc2cc(C(C)(C)O)c(OC)cc12 | Huh7 |  | <1 µM |
| CN(c1ccccc1/C=N/NC(=O)Cc1cccc(Cl)c1)S(=O)(=O)c1ccc(C(F)(F)F)cc1 | Huh7 |  | <5 µM |
| CNC(=O)c1c(-c2ccc(F)cc2)oc2cc(NC(C)=O)c(OC(C)C)cc12 | Huh7 |  | <10 µM |
| Cc1cncc(C(=O)Nc2ccc(-c3cc(N(C(=O)C4CCC(C)CC4)C(C)C)c(C(=O)O)s3)cc2)c1 |  | 1a | >0.5 µM |
| CCN(C(=O)COC)c1cc2oc(-c3ccc(F)cc3)c(C(=O)NC)c2c(Cl)c1OC | Huh7 |  | <10 µM |
| O=C(Cc1ccccc1)N/N=C/c1ccccc1OS(=O)(=O)c1ccc(F)c(Cl)c1 | Huh7 |  | 5–50 µM |
| CNC(=O)c1c(-c2ccc(F)cc2)oc2c(C)cc(OC(C)C)cc12 | Huh7 |  | <30 µM |
| Cc1cnc(CN2C(=O)C(c3ccc(NC(=O)[C@@H](C)NC(=O)OCc4ccccc4)cc3)SC2=Nc2cccc(F)c2)cn1 | Huh7 |  | <0.1 µM |
| CC1CCC(C(=O)N(c2cc(-c3ccc(NC(=O)c4cccnn4)cc3)sc2C(=O)O)C(C)C)CC1 |  | 1b | <0.5 µM |
| C=CC1CC1(NC(=O)[C@@H]1C[C@@H](OC(=O)Nc2ccc(OC)cc2[N+](=O)[O-])CN1C(=O)[C@@H](NC(=O)OC(C)(C)C)C(C)(C)C)C(=O)NS(=O)(=O)C1CC1 | Huh7 | 1b | 1–10 µM |
| C[C@@H](NC(=O)OCc1ccccc1)C(=O)Nc1ccc(C2SC(=Nc3ccc(N4CCOCC4)cc3)N(Cc3ccco3)C2=O)cc1 | Huh7 |  | <0.1 µM |
| O=C(CC12CC3CC(CC(C3)C1)C2)N/N=C/c1ccccc1OS(=O)(=O)c1ccc(C(F)(F)F)cc1 | Huh7 |  | >50 µM |
| COCC(C)N(C(=O)C1CCC(C)CC1)c1cc(-c2ccc(NC(=O)c3cscn3)cc2)sc1C(=O)O |  | 1a | <0.5 µM |
| COc1cccc(CC(=O)N/N=C/c2c(OS(=O)(=O)c3ccc(C)cc3)ccc3ccccc23)c1 | Huh7 |  | 5–50 µM |
| C[C@@H](NC(=O)Cc1ccccc1)C(=O)Nc1ccc(C2SC(=Nc3cccc(F)c3)N(Cc3ccco3)C2=O)cc1 | Huh7 |  | <0.1 µM |
| Cc1nc(C)c(C(=O)Nc2ccc(-c3cc(N(C(=O)C4CCC(C)CC4)C(C)C)c(C(=O)O)s3)cc2)o1 |  | 1a | >0.5 µM |
| C[C@@H](NC(=O)OCc1ccccc1)C(=O)Nc1ccc(C2SC(=Nc3cccc(F)c3)N(CC3CCS(=O)(=O)C3)C2=O)cc1 | Huh7 |  | 1–5 µM |
| O=C(Cc1cnc[nH]1)N/N=C/c1ccccc1OS(=O)(=O)c1ccc(C(F)(F)F)cc1 | Huh7 |  | <5 µM |
| CNC(=O)c1c(-c2ccc(F)cc2)oc2cc(-c3ccncc3)c(OC(C)C)cc12 | Huh7 |  | <10 µM |
| COc1cccc(CC(=O)N/N=C/c2cc(C)ccc2OS(=O)(=O)c2ccc(C(F)(F)F)cc2)c1 | Huh7 |  | <5 µM |
| CC1CCC(C(=O)N(c2cc(-c3ccc(NC(=O)c4cscn4)c(C(F)(F)F)c3)sc2C(=O)O)C(C)C)CC1 |  | 1b | <0.5 µM |
| N#Cc1cccc(N=C2SC(c3ccc(NC(=O)[C@H]4CCCN4C(=O)OCc4ccccc4)cc3)C(=O)N2Cc2ccco2)c1 | Huh7 |  | <0.1 µM |
| CNC(=O)c1c(-c2ccc(F)cc2)oc2cc(Br)c(OC)cc12 | Huh7 |  | <1 µM |
| CN=C1SC(c2ccc(NC(=O)[C@@H]3CCCN3C(=O)Cc3ccccc3)cc2)C(=O)N1Cc1ccccn1 | Huh7 |  | <0.1 µM |
| CC1CCC(C(=O)N(c2cc(-c3ccc(NC(=O)c4cscn4)cc3)sc2C(=O)O)C2CCC2)CC1 |  | 1a | <0.5 µM |
| O=C(Cc1cccc(C(F)(F)F)c1)N/N=C/c1ccccc1OS(=O)(=O)c1ccc(C(F)(F)F)cc1 | Huh7 |  | <5 µM |
| CC1CCC(C(=O)N(c2cc(-c3ccc(NC(=O)c4cnc[nH]4)cc3)sc2C(=O)O)C(C)C)CC1 |  | 1a | <0.5 µM |
| CNC(=O)c1c(-c2ccc(F)c(O)c2)oc2ccc(OC(C)C)cc12 | Huh7 |  | <30 µM |
| O=C(Nc1ccc(C2SC(=Nc3ccc(N4CCOCC4)cc3)N(Cc3ccccn3)C2=O)cc1)[C@H]1CCCN1C(=O)Cc1ccccc1 | Huh7 |  | <0.1 µM |
| C=CC1CC1(NC(=O)[C@@H]1C[C@@H](OC(=O)Nc2cc(C(F)(F)F)ccc2N2CCCC2)CN1C(=O)[C@@H](NC(=O)OC(C)(C)C)C(C)(C)C)C(=O)NS(=O)(=O)C1CC1 | Huh7 | 1b | 0.1–1 µM |
| CC1CCC(C(=O)N(c2cc(-c3ccc(NC(=O)c4cnn(C)c4)cc3)sc2C(=O)O)C(C)C)CC1 |  | 1b | <0.5 µM |
| C=CC1CC1(NC(=O)[C@@H]1C[C@@H](OC(=O)Nc2cccc(C(=O)OCC)c2)CN1C(=O)[C@@H](NC(=O)OC(C)(C)C)C(C)(C)C)C(=O)NS(=O)(=O)C1CC1 | Huh7 | 1b | 1–10 µM |
| C[C@@H](NC(=O)OCc1ccccc1)C(=O)Nc1ccc(C2SC(=Nc3ccc(F)c(C(F)(F)F)c3)N(Cc3ccco3)C2=O)cc1 | Huh7 |  | 1–5 µM |
| O=C(Cc1ccccc1OCc1ccccc1)N/N=C/c1ccccc1OS(=O)(=O)c1ccc(C(F)(F)F)cc1 | Huh7 |  | <5 µM |
| C=CC1CC1(NC(=O)[C@@H]1C[C@@H](OC(=O)Nc2ccccc2-c2ccc(C)o2)CN1C(=O)[C@@H](NC(=O)OC(C)(C)C)C(C)(C)C)C(=O)NS(=O)(=O)C1CC1 | Huh7 | 1b | <0.1 µM |

3 of the rows above, restated:

structure,cells,strain or isolate,value
Cc1cnc(CN2C(=O)C(c3ccc(NC(=O)[C@@H](C)NC(=O)OCc4ccccc4)cc3)SC2=Nc2cccc(F)c2)cn1,Huh7,,<0.1 µM
CCN(C(=O)C1CCC(C)CC1)c1cc(-c2ccc(NC(=O)c3cn(C)cn3)cc2)sc1C(=O)O,,1a,<0.5 µM
COc1cccc(CC(=O)N/N=C/c2ccccc2OS(=O)(=O)c2ccc(-c3cnco3)s2)c1,Huh7,,<5 µM

a–b is a range or a potency band. Blank or dashed fields: not listed here. ECn: concentration that inhibits the pathogen or its effect by n%.